Assay results from US6677310B1, “Ring-expanded nucleosides and nucleotides” (Nabi, priority 1999, dated 2004).

Tested on: Hepatitis B virus (HBV)
Experiment: Anti-HBV assay in 2.2.15 cells (virion DNA, HBV RI)
Format: cell-based
Conditions: for Selectivity Index Virion: virion DNA
Method: The anti-HBV assays were performed according to the published protocol of Korba and Milman, (Korba, B. E.; Milman, G. Antiviral Res., 15, 217 1991), using cultures of 2.2.15 cells. In brief, the assay consisted of (a) seeding the chronically HBV-producing human liver cells (Acs et al. Proc. Nat. Acad. Sci., 84, 464 1987) into 24-well tissue culture plates, and growing to confluence, (b) adding test compounds daily for a continuous 9-day period, harvesting culture media after day 9 and (c) lysing treated cells 24 hours following day 9 of treatment for the analysis of extracellular virion DNA and intracellular HBV genomic forms.
Anti-HBV activity and the toxicity against confluent 2.2.15 cells were determined by the previously described procedure (Korba, B. E., et al. Antivir. Res., 19:55-70, 1992; Korba, B. E., et al. Antivir. Res., 15:217-228, 1991). Briefly, confluent cultures of HBV transfected 2.2.15 cells were maintained on either 96-well or 24-well flat-bottomed tissue culture plates in RPMI 1640 medium with 2% fetal bovine serum (FBS). The cells were treated with test compounds daily for nine consecutive days. The culture media were harvested on day 9 to quantify the amount of virion DNA. On day 10, the cells were lysed to quantify the amount of intracellular HBV replicative intermediates (RI). The quantification of virion DNA and the HBV RI were done by blot hybridization methods (Korba, B. E., et al. Antivir. Res., 19:55-70, 1992; Korba, B. E., et al. Antivir. Res., 15:217-228, 1991). Cellular toxicity against separate cultures of confluent 2.2.15 cells was measured after treatment with the compounds for nine days under identical culture conditions as those used for the antiviral assay (Korba, B. E., et al. Antivir. Res., 19:55-70, 1992). Uptake of neutral red dye by treated cells was compared with dye uptake by untreated control cells (Korba, B. E., et al. Antivir. Res., 19:55-70, 1992).

SMILES | Selectivity Index Virion (CC50/EC50 ratio) | TI (2.2.15 cells, Example 13) | Selectivity Index HBV RI (CC50/EC50 ratio, HBV RI)
N=c1nc(N)c2ncn([C@@H]3O[C@H](CO)[C@@H](O)[C@H]3O)c2c(N)n1 [Compound 14-2, 4,8-Diamino-6H-6-imino-1-β-D-ribofuranosylimidazo[4,5-e][1,3]diazepine] | 1262 |  | 
N=c1[nH]c(=O)c2ncn([C@@H]3O[C@H](CO)[C@@H](O)[C@H]3O)c2c(=O)[nH]1 [Compound 14-1, 6-Imino-6H-1-β-D-ribofuranosyl-4,5,7,8-tetrahydroimidazo[4,5-e][1,3]diazepine-4,8-dione] | 18526 | > 14,000 | 4018
